What is called Kd is the concentration at which binding is half-saturated.

The target in test [1] is SARS-CoV RBD displayed on the surface of yeast (SARS-CoV) (UniProt P59594). Kind of test: FACS. On the technique in general: Flow cytometry measures light scatter and fluorescence of single cells or particles in a stream.
Test [2] has as its target SARS-CoV-2 RBD (WT) displayed on the surface of yeast (SARS-CoV-2) (UniProt P0DTC2). Kind of test: FACS.

S309 came in with a dissociation constant (Kd) in test [1] of 3.22 nM. In test [2], LY-CoV555 returned a Kd of 1.49 nM.

The values above are taken from publication PMC7963221.
